Anti-infective test results gathered from many reports (values: NIAID ChemDB through PubChem).

Shared fields: growth or infection tests; agent: Hepatitis C virus; cells: Huh7; endpoint: EC50

a–b is a range or a potency band. Conditions beyond the fields shown may differ between rows. ECn: concentration that inhibits the pathogen or its effect by n%. An empty or dashed field is not shown.

SMILES	strain or isolate	changes	read by	value
C=C[C@@H]1C[C@]1(NC(=O)[C@@H]1C[C@@H](Oc2cc(-c3ccccc3)nc3cc(OC)ccc23)CN1C(=O)[C@@H](NC(=O)OC(C)(C)C)C(C)(C)C)C(=O)NS(=O)(=O)c1ccc(NC(C)=O)cc1	1b		replicon	<0.5 µM
C[C@H]1CCC[C@H](C)C1n1c(-c2cccs2)nc2cc(C(=O)NC3(C(=O)Nc4ccc(/C=C/C(=O)O)cc4)CCCC3)ccc21				≤5 µM
COc1ccc(-c2cnc3nc(N)nc(N4CCN(Cc5ccncc5)CC4)c3n2)cc1OC	HCV replicon		replicon	0.3–1 µM
C=CC1CC1(NC(=O)[C@@H]1C[C@@H](OC(=O)Nc2ccc(Cl)cc2-c2cc(C)[nH]n2)CN1C(=O)[C@@H](NC(=O)OC(C)(C)C)C(C)(C)C)C(=O)NS(=O)(=O)C1CC1	1b		replicon	>10 µM
C=C[C@@H]1C[C@]1(NC(=O)[C@@H]1C[C@@H](Oc2cc(-c3ccccc3)nc3cc(OC)ccc23)CN1C(=O)[C@@H](NC(=O)OC(C)(C)C)C(C)C)C(=O)NS(=O)(=O)C(C)C	1b		replicon	<0.05 µM
Cc1ccc(S(=O)(=O)Cc2ccccc2/C=N/NC(=O)Cc2cccc(Cl)c2)cc1			replicon	<5 µM
CCN(CC)C(=O)C1=Cc2ccccc2-c2c(C3CCCCC3)c3ccc(C(=O)NS(=O)(=O)N(C)C)cc3n2C1			replicon	0.01–1 µM
C=CC1CC1(NC(=O)[C@@H]1C[C@@H](OC(=O)Nc2ccccc2SC)CN1C(=O)[C@@H](NC(=O)OC(C)(C)C)C(C)(C)C)C(=O)NS(=O)(=O)C1CC1	1b		replicon	0.1–1 µM
CS(=O)(=O)CCNc1nc(N)nc2ccc(-c3cccc(NS(=O)(=O)C4CC4)c3)nc12			replicon	0.3–1 µM
C=C[C@H]1C[C@@]1(NC(=O)[C@@H]1C[C@@H](Oc2cc(-c3ccccc3)nc3cc(OC)ccc23)CN1C(=O)[C@@H](NC(=O)OC(C)(C)C)C(C)(C)C)C(=O)NS(=O)(=O)C1(CC)CC1	1b		replicon	<0.05 µM
O=C(O)/C=C/c1ccc(NC(=O)C2(NC(=O)c3ccc4c(c3)nc(-c3ccsc3)n4C3CCCCC3)CCCC2)cc1				≤5 µM
C=CC1C[C@@]1(NC(=O)[C@@H]1C[C@@H](Oc2cc(-c3nc(C(C)C)cs3)nc3cc(OC)ccc23)CN1C(=O)[C@@H](NC(=O)OC(C)(C)C)C(C)(C)C)C(=O)NS(=O)(=O)C1(CCC)CC1	1b		replicon	<0.05 µM
C=C[C@@H]1C[C@]1(NC(=O)[C@@H]1C[C@@H](Oc2cc(-c3ccccc3)nc3cc(OC)ccc23)CN1C(=O)[C@@H](NC(=O)OCOC(C)=O)C(C)(C)C)C(=O)NS(=O)(=O)C1CC1	1b		replicon	<0.5 µM
CN(C)CCNC(=O)C1Cc2ccccc2-c2c(C3CCCCC3)c3ccc(C(=O)O)cc3n2C1			replicon	0.01–1 µM
C[C@@H](NC(=O)c1ccc2c(n1)nc(-c1ccoc1)n2C1CCCCC1)C(=O)Nc1ccc(/C=C/C(=O)O)cc1				5–50 µM
O=C(Cc1ccc(F)c(F)c1F)N/N=C/c1ccccc1OS(=O)(=O)c1ccc(C(F)(F)F)cc1			replicon	<5 µM
COc1ccc(-c2cnc3nc(N)nc(N4CCN(C(=O)Nc5cccc(Cl)c5)CC4)c3n2)cc1OC	HCV replicon		replicon	<0.3 µM
C=CC1CC1(NC(=O)[C@@H]1C[C@@H](Oc2cc(-c3ccccc3)nc3cc(OC)ccc23)CN1C(=O)[C@@H](NC(=O)OC(C)(C)C)C(C)(C)C)C(=O)NS(=O)(=O)C1(C2=CCCCC2)CC1	1b		replicon	0.05–0.5 µM
C=C[C@@H]1C[C@]1(NC(=O)[C@@H]1C[C@@H](Oc2cc(-c3ccccc3)nc3cc(OC)ccc23)CN1C(=O)[C@@H](NC(=O)OC(C)(C)C)C(C)(C)C)C(=O)NS(=O)(=O)c1ccc(C(C)(C)C)cc1	1b		replicon	<0.5 µM
C=CC1CC1(NC(=O)[C@@H]1C[C@@H](OC(=O)Nc2sc3c(c2C(=O)OCC)CCCC3)CN1C(=O)[C@@H](NC(=O)OC(C)(C)C)C(C)(C)C)C(=O)NS(=O)(=O)C1CC1	1b		replicon	1–10 µM
CC(C)Oc1nc(N)nc2ccc(-c3ccc(C(=O)NC4CCCC4)cc3)nc12			replicon	0.3–1 µM
C[C@@H]1CCCC[C@H]1n1c(-c2ccoc2)nc2cc(C(=O)NC3(C(=O)Nc4ccc(/C=C/C(=O)O)cc4)CCCC3)ccc21				≤5 µM
COc1ccc2c(O[C@@H]3C[C@@H](C(=O)NC4(C(=O)NS(=O)(=O)C5CC5)CCC4)N(C(=O)[C@@H](NC(=O)OC(C)(C)C)C(C)(C)C)C3)cc(-c3ccccc3)nc2c1	1b		replicon	<0.5 µM
CN(C)S(=O)(=O)NC(=O)c1ccc2c(C3CCCCC3)c3n(c2c1)CC(C(=O)N1CCOCC1)Cc1ccncc1-3			replicon	0.01–1 µM
O=C(Cc1ccccc1)N/N=C/c1ccccc1OS(=O)(=O)c1cccs1			replicon	>50 µM
COc1cccc(CN2C(=O)C(c3ccc(NC(=O)[C@@H](C)NC(=O)OCc4ccccc4)cc3)SC2=Nc2cccc(F)c2)c1			replicon	0.1–1 µM
C=C[C@H]1C[C@@]1(NC(=O)[C@@H]1C[C@@H](Oc2cc(-c3ccccc3)nc3cc(OC)ccc23)CN1C(=O)[C@@H](NC(=O)OC(C)(C)C)C(C)(C)C)C(=O)NS(=O)(=O)C1(I)CC1	1b		replicon	<0.05 µM
COc1c(-c2ccc3cc(NS(C)(=O)=O)ccc3c2)cc(-n2ccc(=O)[nH]c2=O)cc1C(C)(C)C	genotype 1a H77	M414T	luciferase	0.031 µM
O=C(O)/C=C/c1ccc(NC(=O)C2(NC(=O)c3ccc4c(c3)nc(-c3cccs3)n4C3CCCCC3)CCCC2)cc1				≤5 µM
C[C@H](NC(=O)Cc1ccccc1)C(=O)Nc1ccc(C2SC3=Nc4ccccc4CN3C2=O)cc1			replicon	0.1–1 µM
C=CC1CC1(NC(=O)[C@@H]1C[C@@H](OC(=O)NCc2cccc(F)c2)CN1C(=O)[C@@H](NC(=O)OC(C)(C)C)C(C)(C)C)C(=O)NS(=O)(=O)C1CC1	1b		replicon	>10 µM
COc1ccc(-c2cnc3nc(N)nc(N4CCN(CC(=O)N(C)c5ccccc5)CC4)c3n2)cc1OC	HCV replicon		replicon	<0.3 µM
C=C[C@H]1C[C@@]1(NC(=O)[C@@H]1C[C@@H](Oc2cc(-c3ccccc3)nc3cc(OC)ccc23)CN1C(=O)[C@@H](NC(=O)OC(C)(C)C)C(C)(C)C)C(=O)NS(=O)(=O)C1(Cc2cc(C)on2)CC1	1b		replicon	<0.05 µM
C=CC1CC1(NC(=O)[C@@H]1C[C@@H](OC(=O)Nc2cc([N+](=O)[O-])ccc2C)CN1C(=O)[C@@H](NC(=O)OC(C)(C)C)C(C)(C)C)C(=O)NS(=O)(=O)C1CC1	1b		replicon	1–10 µM
COc1ccc(-c2cnc3nc(N)nc(N4CCN(C(=O)Nc5ccc(C#N)cc5)CC4)c3n2)cc1OC	HCV replicon		replicon	<0.3 µM
C=C[C@@H]1C[C@]1(NC(=O)[C@@H]1C[C@@H](Oc2cc(-c3ccccc3)nc3cc(OC)ccc23)CN1C(=O)[C@@H](NC(=O)OC(C)(C)C)C(C)C)C(=O)NS(=O)(=O)CC1CC1	1b		replicon	<0.5 µM
NS(=O)(=O)c1ccc(CNc2nc(NCC(F)(F)F)c3nc(-c4ccc(C(=O)NC5CC5)cc4)cnc3n2)cc1	HCV replicon		replicon	0.3–1 µM
COc1cccc(S(=O)(=O)Oc2ccccc2/C=N/NC(=O)Cc2ccccc2)c1			replicon	5–50 µM
CC(C)(N)C(=O)Nc1ccc(-c2ccc3nc(N)nc(O[C@@H]4CCOC4)c3n2)cc1F			replicon	<0.3 µM
C=CC1C[C@@]1(NC(=O)[C@@H]1C[C@@H](Oc2cc(-c3ccccc3)nc3cc(OC)ccc23)CN1C(=O)[C@@H](NC(=O)Oc1ccccc1)C(C)(C)C)C(=O)NS(=O)(=O)C1(Cc2ccccc2)CC1	1b		replicon	0.5–5 µM
C=C[C@@H]1C[C@]1(NC(=O)[C@@H]1C[C@@H](Oc2cc(-c3ccccc3)nc3cc(OC)ccc23)CN1C(=O)[C@@H](NC(=O)C(C)(C)C)C(C)(C)C)C(=O)NS(=O)(=O)C1CC1	1b		replicon	<0.5 µM
C=CC1CC1(NC(=O)[C@@H]1C[C@@H](OC(=O)Nc2cccc(SC)c2)CN1C(=O)[C@@H](NC(=O)OC(C)(C)C)C(C)(C)C)C(=O)NS(=O)(=O)C1CC1	1b		replicon	1–10 µM
c1cnc2c(c1)-c1c(C3CCCCC3)c3ccc(-c4nn[nH]n4)cc3n1CCC2			replicon	1–10 µM
CC(C)CC[C@@]1(C)C(=O)C(C2=NS(=O)(=O)c3cc(NS(C)(=O)=O)ccc3N2)=C(O)c2ccccc21	5a		luciferase	0.7469 µM
Nc1nc(O[C@H]2CCOC2)c2nc(-c3ccc(C(=O)NCC(F)(F)F)cc3)ccc2n1			replicon	<0.3 µM
COc1cc(CNC(=O)c2ccc3c(C4CCCCC4)c4n(c3c2)CC(C(=O)N2CCOCC2)=Cc2ccccc2-4)ccc1O			replicon	0.01–1 µM
C=C[C@H]1C[C@@]1(NC(=O)[C@@H]1C[C@@H](Oc2cc(C3CC3)nc3cc(OC)ccc23)CN1C(=O)[C@@H](NC(=O)OC(C)(C)C)C(C)(C)C)C(=O)NS(=O)(=O)C1(CC2CC2)CC1	1b		replicon	<0.05 µM
COc1ccc(-c2cnc3nc(NCc4cccs4)nc(N)c3n2)cc1OC	HCV replicon		replicon	0.3–1 µM
O=C(O)c1ccc2c(C3CCCCC3)c3c4ccccc4cc(C(=O)O)n3c2c1			replicon	>10 µM
O=C(N/N=C/c1ccccc1OS(=O)(=O)c1ccc(C(F)(F)F)cc1)c1cccnc1			replicon	5–50 µM
O=C(Nc1ccc(C2SC(=Nc3ccc(F)c(C(F)(F)F)c3)N(Cc3ccco3)C2=O)cc1)[C@H]1CCCN1C(=O)OCc1ccccc1			replicon	1–5 µM
C=CC1CC1(NC(=O)[C@@H]1C[C@@H](Oc2cc(-c3ccccc3)nc3cc(OC)ccc23)CN1C(=O)[C@@H](NC(=O)OC(C)(C)C)C(C)(C)C)C(=O)NS(=O)(=O)C1(C(=O)NCCC)CC1	1b		replicon	<0.05 µM
COc1ccc(-c2cnc3nc(N)nc(N4CCN(C(=O)Nc5cccc(C)c5)CC4)c3n2)cc1OC	HCV replicon		replicon	<0.3 µM
C=CC1CC1(NC(=O)[C@@H]1C[C@@H](OC(=O)Nc2cccc(Cl)c2Cl)CN1C(=O)[C@@H](NC(=O)OC(C)(C)C)C(C)(C)C)C(=O)NS(=O)(=O)C1CC1	1b		replicon	0.1–1 µM
O=C(Nc1ccc(C2SC(=Nc3ccc(N4CCOCC4)cc3)N(Cc3ccccn3)C2=O)cc1)[C@H]1CCCN1C(=O)C(c1ccccc1)c1ccccc1			replicon	<0.1 µM
CCOC(=O)c1cc2ccccc2c2c(C3CCCCC3)c3ccc(C(=O)OC)cc3n12			replicon	>10 µM
C=CC1CC1(NC(=O)[C@@H]1C[C@@H](Oc2cc(-c3ccccc3)nc3cc(OC)ccc23)CN1C(=O)[C@@H](NC(=O)OC(C)(C)C)C(C)(C)C)C(=O)NS(=O)(=O)C1(C(=O)Nc2c(C)noc2C)CC1	1b		replicon	<0.05 µM
Nc1nc(O[C@@H]2CCOC2)c2nc(-c3ccc(NC(=O)[C@H]4CCNC4)cc3)ccc2n1			replicon	>1 µM
NS(=O)(=O)c1ccc(CNc2nc(NCC(F)(F)F)c3nc(-c4ccc(F)cc4)cnc3n2)cc1	HCV replicon		replicon	<0.3 µM
C=CC1CC1(NC(=O)[C@@H]1C[C@@H](OC(=O)N[C@H](C(=O)OC)[C@@H](C)CC)CN1C(=O)[C@@H](NC(=O)OC(C)(C)C)C(C)(C)C)C(=O)NS(=O)(=O)C1CC1	1b		replicon	>10 µM

The first 8 rows once more:

SMILES,strain or isolate,changes,read by,value
C=C[C@@H]1C[C@]1(NC(=O)[C@@H]1C[C@@H](Oc2cc(-c3ccccc3)nc3cc(OC)ccc23)CN1C(=O)[C@@H](NC(=O)OC(C)(C)C)C(C)(C)C)C(=O)NS(=O)(=O)c1ccc(NC(C)=O)cc1,1b,,replicon,<0.5 µM
C[C@H]1CCC[C@H](C)C1n1c(-c2cccs2)nc2cc(C(=O)NC3(C(=O)Nc4ccc(/C=C/C(=O)O)cc4)CCCC3)ccc21,,,,≤5 µM
COc1ccc(-c2cnc3nc(N)nc(N4CCN(Cc5ccncc5)CC4)c3n2)cc1OC,HCV replicon,,replicon,0.3–1 µM
C=CC1CC1(NC(=O)[C@@H]1C[C@@H](OC(=O)Nc2ccc(Cl)cc2-c2cc(C)[nH]n2)CN1C(=O)[C@@H](NC(=O)OC(C)(C)C)C(C)(C)C)C(=O)NS(=O)(=O)C1CC1,1b,,replicon,>10 µM
C=C[C@@H]1C[C@]1(NC(=O)[C@@H]1C[C@@H](Oc2cc(-c3ccccc3)nc3cc(OC)ccc23)CN1C(=O)[C@@H](NC(=O)OC(C)(C)C)C(C)C)C(=O)NS(=O)(=O)C(C)C,1b,,replicon,<0.05 µM
Cc1ccc(S(=O)(=O)Cc2ccccc2/C=N/NC(=O)Cc2cccc(Cl)c2)cc1,,,replicon,<5 µM
CCN(CC)C(=O)C1=Cc2ccccc2-c2c(C3CCCCC3)c3ccc(C(=O)NS(=O)(=O)N(C)C)cc3n2C1,,,replicon,0.01–1 µM
C=CC1CC1(NC(=O)[C@@H]1C[C@@H](OC(=O)Nc2ccccc2SC)CN1C(=O)[C@@H](NC(=O)OC(C)(C)C)C(C)(C)C)C(=O)NS(=O)(=O)C1CC1,1b,,replicon,0.1–1 µM